Reference: PubChem BioAssay AID504761 (Drosophila RNAi Screening Center, 2011)

Assay: 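Genome-wide fly cell screen for genes dengue virus requires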 (primary screen)
System: D.Mel-2 cells from Drosophila
Reagent: long dsRNA against Drosophila genes
Treatment: infection with dengue virus type 2; dose and infection time not stated
Measurement: 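Per well on two replicate plates, imaging gave the percent of cells positive for viral envelope protein, ranked by infection, and a nuclear count of cells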
Reading the numbers: infection score: higher = more virus-infected cells; cell count: higher = more cells in the well
Hit rule: 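Low infection ranks in the two replicates (chance level up to 0.065) followed by a retest with a 1.5-fold or larger significant decrease, p below 0.05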
Meaning of the calls: active = confirmed: knock-down lowers infection; inactive = not picked or not confirmed
The screen tested about 22,000 reagents; this is an unselected part of those that have a named target and a result. Over the whole deposit, 116 (0.52%) were called active. 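Calls depend on retest data that are not deposited; infection was ranked per plate without normalising between plates; the unit of the infection score is not given.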 The raw values are shown without normalisation. Names joined by + are all predicted targets of the reagent. Not given: the amount of reagent, the time to read-out.

gene knocked down,amplicon,"infection score, replicate 1","infection score, replicate 2","cell count, replicate 1","cell count, replicate 2",Call
CG3982,DRSC23139,4.67,3.46,6698,7082,inactive
CG3982,DRSC26894,3.57,14.5,6159,6509,inactive
CG15741,DRSC19707,11.2,9.54,5587,5988,inactive
CG15741,DRSC24220,5.79,6.31,6946,6512,inactive
Bap55,DRSC07000,21.5,16.8,2866,3304,inactive
CG10435,DRSC14246,5.03,7.16,6201,6212,inactive
CG10435,DRSC25312,3.89,5.14,6072,5773,inactive
Btnd,DRSC18316,3.52,3.6,6213,6057,inactive
Btnd,DRSC24718,1.61,4.75,5974,6362,inactive
nSyb,DRSC08727,6.25,,3649,422,inactive
nSyb,DRSC27077,11.2,8.45,6575,6665,inactive
Tsen54,DRSC10527,2.71,2.9,6233,6404,inactive
Tsen54,DRSC27583,10.6,3.87,5813,6671,inactive
CG4789,DRSC19918,16.9,7,6552,6298,inactive
retm,DRSC03252,3.6,2.66,5862,6348,inactive
Fkbp12,DRSC07425,2.64,2.95,6408,5835,inactive
CG11811,DRSC09862,1.12,2.51,5962,5374,inactive
CG5071,DRSC15710,15.4,8.42,6566,2162,inactive
CG5071,DRSC22570,5.44,13.1,6366,5680,inactive
CG5071,DRSC24514,3.34,3.17,6195,6055,inactive
H,DRSC16692,4.04,1.12,6913,7163,inactive
H,DRSC26618,2.9,2.72,5965,6039,inactive
Rfk,DRSC15454,6.46,5.03,6298,6103,inactive
Rfk,DRSC29260,20.2,14.5,5823,5048,inactive
GstT4,DRSC19757,3.46,5.63,6790,6984,inactive
Slik,DRSC04471,15.6,12.5,6358,6726,inactive
Slik,DRSC29219,10.9,,2633,364,inactive
Cpr78Cc,DRSC11846,5.31,3.63,6419,6453,inactive
nrv1,DRSC03382,11.2,7.85,5481,5619,inactive
RN-tre,DRSC07521,25.1,5.82,6068,6478,inactive
RN-tre,DRSC28214,2.21,,587,359,inactive
galla-1,DRSC05987,2.45,3.92,6203,5563,inactive
Pde1c,DRSC02421,5.02,4.61,6097,6231,inactive
Pde1c,DRSC02422,11.3,6.53,5893,6033,inactive
Pde1c,DRSC02423,17.3,19.9,3944,5353,inactive
Pde1c,DRSC02424,22.5,20.8,5520,4668,inactive
Pde1c,DRSC02425,3.55,2.13,6611,6707,inactive
Pde1c,DRSC02426,4.41,5.37,6597,6595,inactive
Pde1c,DRSC28161,4.78,15.5,6627,5793,inactive
Vamp7,DRSC06599,24.5,9.4,5766,7138,inactive
slpr,DRSC18225,3.52,1.63,6251,6191,inactive
slpr,DRSC23321,1.75,20.7,6351,5385,inactive
Rbsn-5,DRSC03094,11.7,5.05,5881,6729,inactive
Rbsn-5,DRSC27756,12.4,20,5985,5585,inactive
ppk5,DRSC11492,4.75,2.07,6195,6149,inactive
fabp + sea,DRSC16114,23.6,15,6143,6479,inactive
fabp + sea,DRSC16115,8.87,9.67,6414,6611,inactive
CG5504,DRSC04701,3.82,13.9,6579,5641,inactive
Gr22d (retired record),DRSC21653,1.19,2.73,5969,6516,inactive
Gr22d (retired record),DRSC25985,3.8,4.6,6821,6398,inactive
vvl,DRSC11409,2.03,8.38,6098,5429,inactive
vvl,DRSC26681,9.42,1.55,6169,6795,inactive
Lamtor2 + CG30120,DRSC05726,1.68,1.57,5772,5618,inactive
Lamtor2 + CG30120,DRSC06922,5.22,16.1,5924,3376,inactive
CG31752,DRSC22599,8.66,1.26,6048,6290,inactive
CG18661,DRSC02690,3.09,4.27,6561,6581,inactive
Mical,DRSC14349,6.46,2.16,6807,6809,inactive
Mical,DRSC14351,11.2,6.53,5922,6888,inactive
Mical,DRSC15365,4.29,4.5,6521,6398,inactive
Mical,DRSC15366,10.3,4.7,6367,6451,inactive

Laid out differently: 4 of the entries above.
{"gene knocked down":"slpr","amplicon":"DRSC18225","infection score, replicate 1":3.52,"infection score, replicate 2":1.63,"cell count, replicate 1":6251,"cell count, replicate 2":6191,"Call":"inactive"}
{"gene knocked down":"slpr","amplicon":"DRSC23321","infection score, replicate 1":1.75,"infection score, replicate 2":20.7,"cell count, replicate 1":6351,"cell count, replicate 2":5385,"Call":"inactive"}
{"gene knocked down":"Rbsn-5","amplicon":"DRSC03094","infection score, replicate 1":11.7,"infection score, replicate 2":5.05,"cell count, replicate 1":5881,"cell count, replicate 2":6729,"Call":"inactive"}
{"gene knocked down":"Rbsn-5","amplicon":"DRSC27756","infection score, replicate 1":12.4,"infection score, replicate 2":20,"cell count, replicate 1":5985,"cell count, replicate 2":5585,"Call":"inactive"}
